Legend:
CEM-SS = assay: Inhibitory concentration for anti-HIV activity against HIV-IIIB in CEM-SS cells; assay type: functional, cell-based, Homo sapiens
MRC5 = assay: Inhibitory concentration for anti-HCMV activity against AD-169 strain in MRC-5 cells

Row | Compound | IC50 (CEM-SS) [nM] | IC50 (MRC5) [nM]
1 | Cn1cnn2c(=O)c3ncn([C@@H]4O[C@H](COP(C)(=O)O)[C@@H](OP(C)(=O)O)[C@H]4O)c3nc12 | 1000 | 430
2 | CO[C@@H]1[C@H](OP(C)(=O)O)[C@@H](COP(C)(=O)O)O[C@H]1n1cnc2c(=O)n3ncn(C)c3nc21 | > 7000 | 6700
3 | Cn1cnc2c(ncn2[C@@H]2O[C@H](COP(C)(=O)O)[C@@H](OP(C)(=O)O)[C@H]2O)c1=S | 80 | 150
4 | CO[C@@H]1[C@H](OP(C)(=O)O)[C@@H](COP(C)(=O)O)O[C@H]1n1cnc2c(=S)n3ncn(C)c3nc21 | 1700 | > 2800

— ChEMBL document CHEMBL1131418, “Antiviral oligo- and polyribonucleotides containing selected triazolo[2,3-a]purines” (J Med Chem, 1998)
